Measured values from several laboratories, pooled; numbers as filed in NIAID ChemDB.

Shared fields: whole-cell or culture tests; agent: Cryptosporidium parvum; endpoint: EC50

Neighbouring rows are from separate reports. ECn: concentration that inhibits the pathogen or its effect by n%.

CC(C)N=C(N)/N=C(\N)Nc1ccc(Cl)cc1 ; strain or isolate: Calf isolate ; cell line: L929 ; result: <20 µg/mL
CO[C@@H]1[C@@H](OC)[C@H](C)[C@@](O)(CC(=O)O)O[C@H]1[C@H](C)[C@H]1O[C@@]2(CC[C@@](C)([C@H]3CC[C@@](C)([C@@H]4O[C@@H]([C@H]5O[C@](C)(O)[C@H](C)C[C@@H]5C)C[C@@H]4O[C@@H]4C[C@H](OC)[C@@H](OC)[C@H](C)O4)O3)O2)C[C@H](O)[C@H]1C ; strain or isolate: Iowa bovine isolate ; cell line: MDCK ; read by: antigen ; result: 0.29 µM
C[C@H]1c2cccc(O)c2C(O)=C2C(=O)[C@]3(O)C(O)=C(C(N)=O)C(=O)[C@@H](N(C)C)[C@@H]3[C@@H](O)[C@@H]21 ; cell line: HCT-8 ; result: >1 µM
CC[C@H]1OC(=O)[C@H](C)[C@@H](O[C@H]2C[C@@](C)(OC)[C@@H](O)[C@H](C)O2)[C@H](C)[C@@H](O[C@@H]2O[C@H](C)C[C@H](N(C)C)[C@H]2O)[C@](C)(O)C[C@@H](C)CN(C)[C@H](C)[C@@H](O)[C@]1(C)O ; read by: cell count ; result: >50 µM
CN(C)[C@@H]1C(=O)C(C(N)=O)=C(O)[C@@]2(O)C(=O)C3=C(O)c4c(O)cccc4[C@@](C)(O)[C@H]3[C@H](O)[C@@H]12 ; strain or isolate: Calf isolate ; cell line: L929 ; result: >20 µg/mL
CC[C@@H]1O[C@@H]([C@]2(C)C[C@@H](C)[C@](O)([C@]3(C)CC[C@@H]([C@@H](O)[C@]4(O)O[C@H](C[C@@]5(O)O[C@@H]([C@@H](C)[C@H](O)C[C@@H]6O[C@H]([C@@H](C)C(=O)O)[C@@H](C)C[C@H]6C)CC[C@@H]5C)[C@@H](C)C[C@H]4C)O3)O2)CC[C@@]1(C)O ; cell line: HCT-8 ; result: <1 µM
NS(=O)(=O)c1cc([N+](=O)[O-])c(Nc2ccccc2)c([N+](=O)[O-])c1 ; cell line: MDCK cells ; read by: ELISA / luminescence ; result: 71.4 µM
CC[C@@]1([C@@H]2O[C@@H]([C@H]3O[C@@](O)(CO)[C@H](C)C[C@@H]3C)C[C@@H]2C)CC[C@H]([C@]2(C)CC[C@]3(C[C@H](O)[C@@H](C)[C@@H]([C@@H](C)[C@@H](OC)[C@H](C)C(=O)O)O3)O2)O1 ; cell line: HCT-8 ; result: <1 µM
O=S(=O)(F)Cc1ccccc1 ; read by: cell count / microscopy ; result: >2000 µM
O=c1cc(-c2ccc(O)c(O)c2)oc2cc(O)cc(O)c12 ; cell line: HCT-8 ; result: >100 µM
CO[C@H]1/C=C/O[C@@]2(C)Oc3c(C)c(O)c4c(O)c(c5c(c4c3C2=O)NC2(CCN(CC(C)C)CC2)N=5)=NC(=O)/C(C)=C\C=C\[C@H](C)[C@H](O)[C@@H](C)[C@@H](O)[C@@H](C)[C@H](OC(C)=O)[C@@H]1C ; read by: cell count ; result: >50 µM
CC(=O)Oc1ccc(C)cc1C(=O)Nc1ncc(Cl)s1 ; result: 0.8 µg/mL
COCCN(CCOC)c1c([N+](=O)[O-])cc(C(F)(F)F)cc1[N+](=O)[O-] ; cell line: MDCK cells ; read by: ELISA / luminescence ; result: 6.5 µM
Cc1ccc(C(=O)Nc2ccc(S(=O)(=O)O)c3cc(S(=O)(=O)O)cc(S(=O)(=O)O)c23)cc1NC(=O)c1cccc(NC(=O)Nc2cccc(C(=O)Nc3cc(C(=O)Nc4ccc(S(=O)(=O)O)c5cc(S(=O)(=O)O)cc(S(=O)(=O)O)c45)ccc3C)c2)c1 ; cell line: HCT-8 ; result: >1 µM
NS(=O)(=O)c1cc([N+](=O)[O-])c(N2CCCCC2)c([N+](=O)[O-])c1 ; cell line: MDCK cells ; read by: ELISA / luminescence ; result: 0.9 µM
CCCN(CCC)c1c([N+](=O)[O-])cc(C(F)(F)F)cc1[N+](=O)[O-] ; result: 0.7 µM
CCCC(CC1CC1)c1c([N+](=O)[O-])cc(C(F)(F)F)cc1[N+](=O)[O-] ; result: 1.9 µM
O=c1c(O)c(-c2ccccc2)oc2cc(O)cc(O)c12 ; cell line: HCT-8 ; result: >100 µM
CCCNc1c([N+](=O)[O-])cc(S(N)(=O)=O)cc1[N+](=O)[O-] ; cell line: MDCK cells ; read by: ELISA / luminescence ; result: 1.26 µM
O=c1c(O)c(-c2ccc(O)c(O)c2)oc2cc(O)cc(O)c12 ; cell line: HCT-8 ; result: 30 µM
Cc1cn([C@H]2C[C@H](N=[N+]=[N-])[C@@H](CO)O2)c(=O)[nH]c1=O ; strain or isolate: Calf isolate ; cell line: L929 ; result: <20 µg/mL
CCC(CC)Nc1c([N+](=O)[O-])cc(C)c(C)c1[N+](=O)[O-] ; result: 0.19 µM
CCN(CC)CCCC(C)Nc1ccnc2cc(Cl)ccc12 ; strain or isolate: Calf isolate ; cell line: L929 ; result: >20 µg/mL
O=S(=O)(F)Cc1ccccc1 ; result: >1000 µM